# Measured data: PubChem BioAssay AID1259414 (Drosophila RNAi Screening Center, 2018)
# Test: 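Host factors increasing or decreasing Wolbachia levels in cultured fly cells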 (primary screen)
# Cell system: Drosophila JW18 cells infected with Wolbachia
# Knock-down reagent: long dsRNA against Drosophila genes, 0.25 µg dsRNA per well of a 384-well plate
# Timing: 5 days
# Challenge: cells persistently infected with Wolbachia before knock-down; no added drug
# Read-out: 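Imaged fluorescence in situ signal for Wolbachia 23S rRNA per DAPI-counted host cell, given as a robust z-score within each plate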
# Scale: Wolbachia per cell robust z: higher = more Wolbachia per host cell than the plate typical
# Active means: 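Hit when robust z is 1.5 or more, or -1.5 or less, in at least two of three replicates; excludes dsRNAs with several or no targets, genes not expressed in JW18 and well A1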
# The deposit covers about 24,000 reagents; this is an unselected part of those with a known target gene and a result. Of all reagents, about 1,210 (5%) were called active. 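Inactive calls also include excluded dsRNAs with several or no targets, genes unexpressed in JW18, and well A1, regardless of score.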 Names joined by + are all predicted targets of the reagent. No sequences are given here.
target gene,DRSC id,"Wolbachia per cell robust z, rep 1","Wolbachia per cell robust z, rep 2","Wolbachia per cell robust z, rep 3",Call
tefu (telomere fusion),DRSC16060,-0.479,-0.1,-2.66,inactive
Nepl16 (Neprilysin-like 16),DRSC14650,0.481,-1.3,0.137,inactive
Fntb (Farnesyl transferase beta subunit),DRSC15244,-1.71,0.111,0.7,inactive
Fntb (Farnesyl transferase beta subunit),DRSC28158,-2.12,-0.326,-0.202,inactive
Rdh1 (Retinol dehydrogenase 1),DRSC06812,1.15,-0.468,-0.545,inactive
CG42740 + CG2217,DRSC14141,-1.71,-0.725,-0.212,inactive
Cep97 (Centrosomal protein 97kDa),DRSC00637,-2.07,-3.88,0.724,active
CG1314,DRSC20495,1.63,0.992,-1.1,inactive
CG9555,DRSC03264,0.00422,1.19,1.66,inactive
CG9555,DRSC25330,0.99,1.35,-0.487,inactive
MEP-1 + CG42245,DRSC21460,-0.647,-0.749,0.0423,inactive
Pcl (Polycomblike),DRSC07503,-0.387,-1.62,-2.05,active
Pcl (Polycomblike),DRSC24868,0.835,0.565,0.536,inactive
CG8671,DRSC03102,-2.2,-1.59,-0.00468,active
CG8671,DRSC03103,-0.438,-5.18,-0.908,inactive
CG8671,DRSC27179,1.33,0.485,0.421,inactive
Fer1 (48 related 1),DRSC12507,-0.319,1.02,-0.669,inactive
Fer1 (48 related 1),DRSC12555,0.394,0.678,-0.894,inactive
Fer1 (48 related 1),DRSC29849,-0.542,-1.69,-0.162,inactive

2 neighbouring reagents from above:
target gene,DRSC id,"Wolbachia per cell robust z, rep 1","Wolbachia per cell robust z, rep 2","Wolbachia per cell robust z, rep 3",Call
Fer1 (48 related 1),DRSC12555,0.394,0.678,-0.894,inactive
Fer1 (48 related 1),DRSC29849,-0.542,-1.69,-0.162,inactive

Additional records follow.
target gene,DRSC id,"Wolbachia per cell robust z, rep 1","Wolbachia per cell robust z, rep 2","Wolbachia per cell robust z, rep 3",Call
CG32298 + CG32299,DRSC07980,0.0318,2.58,0.675,inactive
CG32298 + CG32299,DRSC22354,0.119,-0.932,-0.463,inactive
CG32298 + CG32299,DRSC25827,-0.915,1.78,0.0925,inactive
CG6695,DRSC16098,0.224,1.27,0.465,inactive
CG6695,DRSC24623,-0.0529,-1.17,-1.06,inactive
"Polr2F (RNA polymerase II, I and III subunit F)",DRSC12366,2.7,2.04,1.45,active
"Polr2F (RNA polymerase II, I and III subunit F)",DRSC28784,0.744,1.64,1.31,inactive
CG7443,DRSC16244,1.81,1.06,0.714,inactive
yata,DRSC15408,0.173,0.628,0.494,inactive
CG4360,DRSC15566,-0.00742,-1.16,0.186,inactive
CG4360,DRSC30049,-0.286,-1.75,-1.11,inactive
Rme-8 (Receptor mediated endocytosis 8),DRSC07054,-1.36,1.81,-0.00152,inactive
TAF1C-like,DRSC04073,-0.0945,0.468,-0.65,inactive
CG32767,DRSC18386,1.35,-1.45,1.44,inactive
CG32767,DRSC23721,1.21,0.789,0.502,inactive
CG7367,DRSC03049,0.239,0.258,0.368,inactive
CG7367,DRSC28024,-0.0901,-1.11,-1.39,inactive
CG14277,DRSC02380,0.286,0.881,-6.16,inactive
Kat60 (Katanin 60),DRSC12378,1.62,0.536,1.28,inactive
mge (maggie),DRSC08721,0.337,1.11,1.1,inactive
Nup160 (Nucleoporin 160kD),DRSC02774,0.243,-0.892,-0.0778,inactive
CG4991,DRSC19928,-3.71,0.228,-0.471,inactive
CG17721,DRSC15253,-0.0115,0.274,0.714,inactive
PpD3 (Protein phosphatase D3),DRSC16796,-1.66,-0.656,0.0692,inactive
GC2,DRSC14476,-0.0234,-1.69,-0.201,inactive
GC2,DRSC27370,1.58,0.953,0.035,inactive
Psc (Posterior sex combs),DRSC07518,-1.41,-1.97,-4.18,active
Psc (Posterior sex combs),DRSC29016,0.939,0.86,1.03,inactive
